Measured values: paper PMC6024821, “Synthesis, Structure and Biological Activity of CIA and CIB, Two α-Conotoxins from the Predation-Evoked Venom of Conus catus” (2018)
Where “and” joins values, the source holds several entries; their conditions need not be identical. Identical values can stand only once.

Chains of the proteins cited; added tags and fusions are not shown. Residues count along the entry.
UniProt P04757, 26-499 limits assumed: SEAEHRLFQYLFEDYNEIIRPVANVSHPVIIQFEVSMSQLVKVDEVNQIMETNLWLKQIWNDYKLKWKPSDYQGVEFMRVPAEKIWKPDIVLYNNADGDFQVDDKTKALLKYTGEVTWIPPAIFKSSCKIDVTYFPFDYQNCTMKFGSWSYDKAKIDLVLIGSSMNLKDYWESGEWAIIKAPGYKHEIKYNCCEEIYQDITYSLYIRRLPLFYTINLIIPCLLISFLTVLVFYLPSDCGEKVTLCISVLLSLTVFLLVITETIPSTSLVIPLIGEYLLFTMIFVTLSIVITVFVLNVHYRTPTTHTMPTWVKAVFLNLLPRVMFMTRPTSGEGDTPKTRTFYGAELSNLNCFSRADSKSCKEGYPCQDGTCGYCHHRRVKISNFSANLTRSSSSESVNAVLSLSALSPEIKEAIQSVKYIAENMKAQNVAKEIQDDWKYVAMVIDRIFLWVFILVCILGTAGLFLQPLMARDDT
UniProt P12390, 25-500 limits assumed: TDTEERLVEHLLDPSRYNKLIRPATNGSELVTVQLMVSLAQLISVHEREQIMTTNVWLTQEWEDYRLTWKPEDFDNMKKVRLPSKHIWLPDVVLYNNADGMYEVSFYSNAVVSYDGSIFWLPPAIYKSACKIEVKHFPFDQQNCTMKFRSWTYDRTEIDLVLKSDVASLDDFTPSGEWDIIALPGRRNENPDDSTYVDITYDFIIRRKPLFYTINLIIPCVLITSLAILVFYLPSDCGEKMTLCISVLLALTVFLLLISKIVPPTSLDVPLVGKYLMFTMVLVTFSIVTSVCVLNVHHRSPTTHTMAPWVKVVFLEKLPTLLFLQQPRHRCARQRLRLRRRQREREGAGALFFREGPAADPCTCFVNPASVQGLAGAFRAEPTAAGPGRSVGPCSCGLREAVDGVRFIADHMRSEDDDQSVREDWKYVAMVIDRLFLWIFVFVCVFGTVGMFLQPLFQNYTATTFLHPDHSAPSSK

Target: neuronal nAChR subtype α3β2 (Rattus norvegicus, UniProt P04757+P12390)
Conditions: read-out: IC50, inhibition of neuronal nAChR α3β2; rat α3β2 in Xenopus laevis oocytes; -70 mV; 2-s pulses of 100 µM ACh; 3-min preincubation with toxin in static bath; ND96 pH 7.4; Hill fit; mean of at least 3 oocytes

With `C[C@@H]1NC(=O)[C@@H]2CCCN2C(=O)[C@H](Cc2c[nH]cn2)NC(=O)[C@@H]2CSSC[C@@H](C(N)=O)NC(=O)[C@H](CO)NC(=O)[C@H](Cc3ccccc3)NC(=O)[C@H](Cc3c[nH]cn3)NC(=O)[C@H](CCCCN)NC(=O)CNC(=O)[C@H](CSSC[C@H](NC(=O)[C@H](CCCNC(=N)N)NC(=O)CNC(=O)[C@@H](N)CC(N)=O)C(=O)N2)NC1=O` the IC50 was 2.06 µM and 2 µM.
